Test results published in paper PMC6051671, “A genome-wide screen of Epstein-Barr virus proteins that modulate host SUMOylation identifies a SUMO E3 ligase conserved in herpesviruses” (PLoS Pathogens, 2018).

Target: T1, His6-SM-3FLAG (pET15b-SM-3FLAG) (Epstein-Barr virus)
T1 construct: also called recombinant SM; EB2; source: E. coli BL21-pLysS, partially purified (Ni-NTA)
Assay: pull-down
Details: both partners purified

B1: GST-SUMO1 (pGEX2T-SUMO1) (natural protein)
chain: not shown
notes: also called GST-tagged SUMO1; source: E. coli DH5alpha; in bacterial lysate (assay with BRLF1)
B1: binds.
